A mixed list of measured activities; the numbers were collected in NIAID ChemDB.

Common to all: tests in culture

Conditions beyond the fields shown may differ between rows.

compound,method,species,cells,strain or isolate,dose,read-out,result
O=c1[nH]c(=O)n([C@H]2C[C@H](O)[C@@H](CO)O2)cc1I,,Herpes simplex virus 1,,WOL,,MIC,1.1 µg/mL
Cc1cn([C@@H]2O[C@H](CO)[C@@H](O)[C@@H]2O)c(=O)[nH]c1=O,,Herpes simplex virus,,WT-20,,MIC,100 µg/mL
Nc1nc(=O)n([C@@H]2O[C@H](CO)[C@@H](O)[C@@H]2F)cc1I,virus yield,Herpes simplex virus 2,VERO,G,0.05 µM,inhibition,59%
O=S(=O)([O-])c1ccc(NS(=O)(=O)c2ccccc2)c2c(S(=O)(=O)[O-])cccc12,cytopathic effect,Herpes simplex virus,Human amnion AV3 cells,,50 µg/mL,inhibition,30%
Cc1c(NC(=O)OC(C)(C)C)ccc2nc(N(CCc3ccccc3)C(=O)NCc3ccncc3)oc(=O)c12,plaque count,Herpes simplex virus 1,VERO,,,EC90,>25 µM
Cc1cc(-c2ccc(N=Nc3c(N)c(S(=O)(=O)O)cc4cc(S(=O)(=O)O)ccc34)c(C)c2)ccc1N=Nc1c(N)ccc2cc(S(=O)(=O)O)ccc12,cytopathic effect,Herpes simplex virus,Human amnion AV3 cells,,50 µg/mL,inhibition,100%
Cc1cn([C@@H]2O[C@H](CO)[C@@H](O)[C@@H]2F)c(=O)[nH]c1=O,cytopathic effect,Herpes simplex virus 2,VERO,K979,0.3 µg/mL,inhibition,≥25%
OC[C@H]1O[C@H](Oc2ccc(Cl)cc2)C[C@@H](O)[C@@H]1O,plaque count,Herpes simplex virus,LLC-MK2,,,EC50,2000 µM
O=C(Nc1ccc(NC(=S)Nc2cc(C(F)(F)F)cc(C(F)(F)F)c2)cc1)c1csnn1,,Herpes simplex virus,,,,EC50,>20 µM
OC[C@H]1O[C@H](Oc2ccccc2)C[C@@H](O)[C@@H]1O,plaque count,Herpes simplex virus,LLC-MK2,,,EC50,2000 µM
Cc1c(NC(=O)C(C)C)ccc2nc(NC(C)(C)C(=O)N(C)CCc3ccccn3)oc(=O)c12,plaque count,Herpes simplex virus 1,VERO,,,EC90,12.5 µM
Nc1ccn([C@H]2O[C@@H](CO)[C@H](O)[C@H]2F)c(=O)n1,virus yield,Herpes simplex virus 2,VERO,G,10 µM,inhibition,97%
O=c1[nH]c(=O)n([C@H]2C[C@H](O)[C@@H](CO)O2)cc1/C=C/Br,cytopathic effect,Herpes simplex virus 2,VERO,K979,30 µg/mL,inhibition,≥25%
O=C(Nc1ccc(NC(=S)Nc2ccc(Cl)c(C(F)(F)F)c2)cc1)c1csnn1,,Herpes simplex virus,,,,EC50,20 µM
O=c1[nH]c(=O)n([C@H]2C[C@H](O)[C@@H](CO)O2)cc1I,cytopathic effect,Herpes simplex virus 2,PRK,G,0.91 µg/mL,inhibition,≥25%
COc1cc(OC)c(NC(=S)Nc2ccc(NC(=O)c3csnn3)cc2)cc1Cl,,Herpes simplex virus,,,,EC50,>22 µM
Cc1c(NC(=O)OC(C)(C)C)ccc2nc(N3CCC[C@H]3C(=O)NCc3cccnc3)oc(=O)c12,plaque count,Herpes simplex virus 1,VERO,,,EC90,>12.5 µM
O=S(=O)([O-])c1cc(S(=O)(=O)[O-])c2cc(NS(=O)(=O)c3ccccc3)ccc2c1,cytopathic effect,Herpes simplex virus,Human amnion AV3 cells,,5 µg/mL,inhibition,0%
Cc1c(NC(=O)C2CCCC2)ccc2nc(NC(C)(C)C(=O)N(C)CCc3ccccn3)oc(=O)c12,plaque count,Herpes simplex virus 1,VERO,,,EC90,>12.5 µM
O=S(=O)([O-])c1ccc2c(NS(=O)(=O)c3ccccc3)cc(S(=O)(=O)[O-])cc2c1,cytopathic effect,Herpes simplex virus,Human amnion AV3 cells,,10 µg/mL,inhibition,0%
Cc1cn([C@@H]2O[C@H](CO)[C@@H](O)[C@@H]2F)c(=O)[nH]c1=O,virus yield,Herpes simplex virus 2,VERO,G,0.5 µM,inhibition,71%
O[C@@H]1[C@@H](O)[C@H](Oc2ccccc2)O[C@H](CCl)[C@H]1O,plaque count,Herpes simplex virus,LLC-MK2,,,EC50,1000 µM
C=Cc1cn([C@@H]2O[C@H](CO)[C@@H](O)[C@@H]2O)c(=O)[nH]c1=O,,Herpes simplex virus,,WT-34,,MIC,0.32 µg/mL
Cc1c(NC(=O)OC(C)(C)C)ccc2nc(N(CCc3ccccc3)C(=O)N(C)CCc3ccncc3)oc(=O)c12,plaque count,Herpes simplex virus 1,VERO,,,EC90,<3.2 µM
O=c1ccn([C@@H]2O[C@H](CO)[C@@H](O)[C@@H]2F)c(=O)[nH]1,virus yield,Herpes simplex virus 2,VERO,G,10 µM,inhibition,99.82%
Nc1nc2c(ncn2COC(CO)CO)c(=O)[nH]1,cytopathic effect,Herpes simplex virus 2,HEP-2,K979,0.3 µg/mL,inhibition,≥25%
Nc1ccn(C[C@@H](CO)OCP(=O)(O)O)c(=O)n1,plaque count,Herpes simplex virus,MRC-5,Initial clinical isolates,,EC50,0.4 µM
O=c1[nH]c(=O)n([C@@H]2O[C@H](CO)[C@@H](O)[C@@H]2O)cc1/C=C/Br,,Herpes simplex virus,,WT-34,,MIC,0.032 µg/mL
Cc1c(NC(=O)OC(C)(C)C)ccc2nc(N(C)CC(=O)N(C)CCc3ccccn3)oc(=O)c12,plaque count,Herpes simplex virus 1,VERO,,,EC90,>20 µM
O=S(=O)(O)c1cccc2c(O)cccc12,cytopathic effect,Herpes simplex virus,Human conjunctiva cells,,10 µg/mL,inhibition,0%
O=c1[nH]c(=O)n([C@@H]2O[C@H](CO)[C@@H](O)[C@@H]2F)cc1I,virus yield,Herpes simplex virus 2,VERO,G,0.1 µM,inhibition,60%

4 of the rows above, restated:

compound,method,species,cells,strain or isolate,dose,read-out,result
O=c1[nH]c(=O)n([C@H]2C[C@H](O)[C@@H](CO)O2)cc1I,cytopathic effect,Herpes simplex virus 2,PRK,G,0.91 µg/mL,inhibition,≥25%
O=c1[nH]c(=O)n([C@H]2C[C@H](O)[C@@H](CO)O2)cc1I,,Herpes simplex virus 1,,WOL,,MIC,1.1 µg/mL
Cc1cc(-c2ccc(N=Nc3c(N)c(S(=O)(=O)O)cc4cc(S(=O)(=O)O)ccc34)c(C)c2)ccc1N=Nc1c(N)ccc2cc(S(=O)(=O)O)ccc12,cytopathic effect,Herpes simplex virus,Human amnion AV3 cells,,50 µg/mL,inhibition,100%
Cc1c(NC(=O)OC(C)(C)C)ccc2nc(N(CCc3ccccc3)C(=O)N(C)CCc3ccncc3)oc(=O)c12,plaque count,Herpes simplex virus 1,VERO,,,EC90,<3.2 µM

Blank or dashed fields: not listed here. ECn: concentration that inhibits the pathogen or its effect by n%. Percent inhibition refers to the dose given; in toxicity tests it is the harm to the cells.